Consider 1 sequence from article PMC10119312, “Structural insights into RNase J that plays an essential role in Mycobacterium tuberculosis RNA metabolism” (Nature Communications, 2023).

For data set [1], the target named is T1, Mtb-RNase J 1-470/D85A (Mycobacterium tuberculosis H37Rv) (UniProt P9WGZ9).
T1 sequence (looked up): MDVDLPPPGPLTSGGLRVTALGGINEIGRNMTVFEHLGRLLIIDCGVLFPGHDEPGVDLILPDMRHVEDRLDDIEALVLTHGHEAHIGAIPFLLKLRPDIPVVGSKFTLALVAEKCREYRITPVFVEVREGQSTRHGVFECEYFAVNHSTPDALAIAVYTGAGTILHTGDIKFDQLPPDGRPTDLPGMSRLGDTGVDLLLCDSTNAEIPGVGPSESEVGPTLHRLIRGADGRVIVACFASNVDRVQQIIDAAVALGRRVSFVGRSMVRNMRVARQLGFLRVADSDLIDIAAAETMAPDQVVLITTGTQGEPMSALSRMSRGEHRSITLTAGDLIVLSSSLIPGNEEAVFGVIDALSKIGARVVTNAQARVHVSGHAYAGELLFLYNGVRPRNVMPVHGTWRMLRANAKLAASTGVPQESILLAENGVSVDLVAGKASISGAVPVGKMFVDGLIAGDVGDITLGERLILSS
The data set can be described thus: EMSA. Conditions: 0.5 uM RNA, reference for 1-450/D85A; recombinant protein; residues 1-470; protein details: N-terminal 6xHis-SUMO, removed by ULP1. In general terms: Mobility shift assays separate free from complexed probe on a gel.

Data set [2] addresses T2, Mtb-RNase J D85A (catalytically inactive) (Mycobacterium tuberculosis H37Rv) (UniProt P9WGZ9).
T2 sequence (looked up): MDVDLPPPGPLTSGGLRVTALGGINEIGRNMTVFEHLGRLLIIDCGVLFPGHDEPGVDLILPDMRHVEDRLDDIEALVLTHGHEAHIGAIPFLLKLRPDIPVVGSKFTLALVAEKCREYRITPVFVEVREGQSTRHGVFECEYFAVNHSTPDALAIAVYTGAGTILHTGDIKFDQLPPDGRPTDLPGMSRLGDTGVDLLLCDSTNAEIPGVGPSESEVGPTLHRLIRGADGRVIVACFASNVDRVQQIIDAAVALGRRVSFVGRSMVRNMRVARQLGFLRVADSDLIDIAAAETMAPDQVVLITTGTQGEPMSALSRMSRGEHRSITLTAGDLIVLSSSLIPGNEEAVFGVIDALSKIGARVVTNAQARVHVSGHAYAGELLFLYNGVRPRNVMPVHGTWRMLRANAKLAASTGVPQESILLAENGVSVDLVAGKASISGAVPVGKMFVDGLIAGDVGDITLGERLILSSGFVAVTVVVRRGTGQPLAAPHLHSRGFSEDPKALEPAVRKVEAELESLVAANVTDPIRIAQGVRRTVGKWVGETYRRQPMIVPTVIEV
As to the kind of experiment: EMSA. Particulars: 0.5 uM RNA; recombinant protein; residues 1-558; protein details: N-terminal 6xHis-SUMO, removed by ULP1.

Construct, isoform or probe ends are uncertain for at least one entry. At least one verdict was read from the data and is not stated in words by the source. Tags and fusion partners may be left off the protein sequences shown.

Take UUCCGUUUAUUCAUACUUCA: the binding result in data set [1] and in data set [2] was “binds” in each case.
